# Experimental data published in PMC4785407, “Reduction Impairs the Antibacterial Activity but Benefits the LPS Neutralization Ability of Human Enteric Defensin 5” (Scientific Reports, 2016).
# Test: HD5 forms in human luminal fluid (AU-PAGE immunoblotting, MALDI-TOF)
# Conditions: LF of terminal ileum, healthy donors, IAM-alkylated
compound,measurement,value
CC[C@H](C)[C@H](NC(=O)[C@H](CCC(=O)O)NC(=O)[C@H](CS)NC(=O)[C@@H](NC(=O)CNC(=O)[C@H](CO)NC(=O)[C@H](CC(C)C)NC(=O)[C@H](CO)NC(=O)[C@H](CCC(=O)O)NC(=O)[C@H](CCCNC(=N)N)NC(=O)[C@@H](NC(=O)[C@H](C)NC(=O)[C@H](CS)NC(=O)[C@H](CCCNC(=N)N)NC(=O)CNC(=O)[C@@H](NC(=O)[C@H](CCCNC(=N)N)NC(=O)[C@H](CS)NC(=O)[C@H](Cc1ccc(O)cc1)NC(=O)[C@H](CS)NC(=O)[C@@H](NC(=O)[C@H](C)N)[C@@H](C)O)[C@@H](C)O)[C@@H](C)O)C(C)C)C(=O)N[C@@H](CO)C(=O)NCC(=O)N[C@@H](CCCNC(=N)N)C(=O)N[C@@H](CC(C)C)C(=O)N[C@@H](Cc1ccc(O)cc1)C(=O)N[C@@H](CCCNC(=N)N)C(=O)N[C@@H](CC(C)C)C(=O)N[C@@H](CS)C(=O)N[C@@H](CS)C(=O)N[C@@H](CCCNC(=N)N)C(=O)O [HD5RED] (H-ATCYCRTGRCATRESLSGVCEISGRLYRLCCR-OH),existence in human luminal fluid,mature HD5 existed as HD5OX and HD5RED in LF

# Peptide text beside a SMILES is read from it.
